Data published in patent publication US20230227512A1.

Molecular target: BG505 SOSIP.664 HIV-1 Env ectodomain trimer
Assay: SPR

Substance: soluble CD4 (sCD4) (from UniProt P01730 26-208)
- Kd: 0.9 nM
